Target: T1, mycobacterial DesA3 (Rv3229c) (UniProt P9WNZ3)
T1 sequence: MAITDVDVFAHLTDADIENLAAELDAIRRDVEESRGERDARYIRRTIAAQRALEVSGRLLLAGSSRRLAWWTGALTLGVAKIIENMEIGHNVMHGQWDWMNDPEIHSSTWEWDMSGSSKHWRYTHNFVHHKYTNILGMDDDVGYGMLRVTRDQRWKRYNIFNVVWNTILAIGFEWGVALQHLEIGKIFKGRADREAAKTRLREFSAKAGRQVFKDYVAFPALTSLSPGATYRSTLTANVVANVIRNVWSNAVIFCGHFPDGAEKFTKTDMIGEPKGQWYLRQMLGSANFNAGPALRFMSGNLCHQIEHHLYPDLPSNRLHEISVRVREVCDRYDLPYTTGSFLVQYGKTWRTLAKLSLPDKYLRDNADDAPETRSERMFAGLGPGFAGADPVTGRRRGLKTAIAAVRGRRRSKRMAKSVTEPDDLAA

Mycobacterium tuberculosis H37Rv oxidoreductase Rv3230c
increase in activity of production of 18:1-CoA: up to 30-fold
rate of production of 18:1-CoA: greater than 10-fold increase

Source: patent US20080182249A1, “Expression systems for mammalian and mycobacterial desaturases” (priority 2006, published 2008)
